Results of unrelated studies side by side (data: NIAID ChemDB).

Shared fields: tests in culture; organism: HIV-1

ECn: concentration that inhibits the pathogen or its effect by n%. Blank or dashed fields: not listed here. Lines come from different laboratories, so protocols vary.

structure | read-out | strain | method | conditions | cells | changes | result
Cc1cn([C@H]2C[C@H](N=[N+]=[N-])[C@@H](CO)O2)c(=O)[nH]c1=O | EC50 | SK1 | cytopathic effect / MTT | - | CEM + CEM-SS | - | 0.004 µM
Cc1ccnc2c1NC(=O)c1cccnc1N2C1CC1 | EC50 | RTMC (RT D67N K70R T215F K219Q) | plaque count | - | HT4 + HT4 LacZ-1 | RT-D67N K70R T215F K219Q | 0.07 µM
N#CCN1C(=O)N(Cc2ccccc2)S(=O)(=O)c2cscc21 | EC50 | - | syncytia | - | CEM | RT-Y181C | >300 µM
Cc1cn([C@@H]2O[C@H](CO[Si](C)(C)C(C)(C)C)C3(OS(=O)(=O)C=C3N)[C@H]2O[Si](C)(C)C(C)(C)C)c(=O)n(C)c1=O | EC50 | IIIB | cytopathic effect | - | CEM | RT-L100I | 0.041 µg/mL
CC(C)(C)NC(=O)[C@@H]1C[C@@H]2CCCC[C@@H]2CN1C[C@@H](O)[C@H](Cc1ccccc1)NC(=O)[C@H](CC(N)=O)NC(=O)c1ccc2ccccc2n1 | EC50 | Clinical isolate | - | multidrug-resistant | PBMC | L10I K14R L33I M36I M46I F53I K55R I62V L63P A71V G73S V82A L90M I93L | 0.35 µM
O=C1N(Cc2ccccc2)c2cscc2S(=O)(=O)N1Cc1ccccc1 | EC50 | - | syncytia | - | CEM | RT-K103N | >10.4 µM
Cc1ccnc2c1NC(=O)c1cccnc1N2C1CC1 | EC50 | RT-T69G K103N | p24 | - | MT-2 | 1(T69G+K103N) | 0.577 µM
Cc1cn([C@H]2C[C@H](N=[N+]=[N-])[C@@H](CO)O2)c(=O)[nH]c1=O | EC50 | NRTI resistant | luciferase | - | HeLa | RT-M41L E44D D67N T69D V118I M184V L210W T215Y | 0.897 µM
Cc1cn([C@H]2C[C@H](N=[N+]=[N-])[C@@H](CO)O2)c(=O)[nH]c1=O | EC50 | K65R(RT-K65R) | p24 | - | MT-2 | RT-K65R | 0.016 µM
CC(C)CN(C[C@@H](O)[C@H](Cc1ccccc1)NC(=O)[C@H](CC(N)=O)NC(=O)c1ccc2ccccc2n1)C(=O)NC(C)(C)C | EC50 | NL4-3 | p24 | - | MT-4 | PR-L10R L63P V82T I84V | <0.8 µM
Nc1nc(=O)n([C@@H]2CS[C@H](CO)O2)cc1F | EC50 | NL4-3 | GFP | - | TZM-gfp | M184V | >100 µM
CCOCn1c(Cc2ccccc2)c(C(C)C)c(=O)[nH]c1=O | EC50 | P-1 (RT-K103N Y144F) | cytopathic effect | - | CEM | RT-K103N Y144F | 0.7 µg/mL
CC(C)c1nc(CN(C)C(=O)N[C@H](C(=O)N[C@@H](Cc2ccccc2)C[C@H](O)[C@H](Cc2ccccc2)NC(=O)OCc2cncs2)C(C)C)cs1 | EC90 | NL4-3 | p24 | - | MT-4 | - | 0.08 µM
Nc1ncnc2c1ncn2CCOCP(=O)(O)O | EC50 | HXB2D | XTT | - | MT-2 | - | 10 ± 1.6 µM
C[C@@H](Cn1cnc2c(N)ncnc21)OCP(=O)(O)O | EC50 | IIIB | syncytia | - | C8166 | - | ≥100 µM
c1cc(CN2CCCNCCNCCCNCC2)ccc1CN1CCCNCCNCCCNCC1 | EC50 | IIIB X4 | p24 | - | PBMC | - | 0.0685 µM
Cc1ccnc2c1NC(=O)c1cccnc1N2C1CC1 | EC50 | RTMC (RT-Y181C) | plaque count | - | HT4 + HT4 LacZ-1 | RT-D67N K70R Y181C T215Y K219Q | 5.6 µM
CC(=O)c1ccc(C)cc1NC(C(N)=O)c1c(Cl)cccc1Cl | EC50 | Calanolide A-resistant (RT T139I) | XTT | - | CEM + CEM-SS | RT-T139I | 0.07 µM
CC(C)=CCN1Cc2cc(Cl)cc3[nH]c(=S)n(c23)C[C@@H]1C | EC50 | IIIB | cytopathic effect | - | C8166 | - | 0.031 µg/mL
Cc1cn([C@H]2C=C[C@@H](CO)O2)c(=O)[nH]c1=O | EC50 | NL4-3 WT | luciferase | - | HeLa | - | 1.221 µM
CC(C)=CCOc1cc(NC(=S)c2ccsc2C)ccc1Cl | EC50 | - | cytopathic effect | - | CEM | - | 0.005 µg/mL
CCc1c(C(=O)c2cc(C)cc(C)c2)n(CC2CC=CC2)c(=O)[nH]c1=O | EC50 | SIKA | cytopathic effect / XTT | clinical isolate | PBMC | - | 0.0008 µM
Nc1nc(=O)n([C@@H]2CS[C@H](CO)O2)cc1F | EC50 | RTMC (RT D67N K70R T215F K219Q) | plaque count | - | HT4 + HT4 LacZ-1 | RT-D67N K70R T215F K219Q | 0.4 µM
O=C1N(Cc2ccc(CO)cc2)[C@H](Cc2ccccc2)[C@H](O)[C@@H](O)[C@@H](Cc2ccccc2)N1Cc1ccc(CO)cc1 | EC50 | G clinical isolate | p24 | - | PBMC | - | 0.11 µM
C/C=C/CSc1cc(NC(=S)c2ccsc2C)ccc1Cl | EC50 | Costatolide-resistant (RT Y188H) | cytopathic effect / XTT | - | CEM + CEM-SS | RT-Y188H | 1 µM
Nc1ncnc2c1ncn2CCOCP(=O)(O)O | EC50 | L74V(RT-L74V) | p24 | - | MT-2 | RT-L74V | 1.3 µM
Fc1cccc(Cl)c1C1OCc2nc3ccccc3n21 | EC50 | TIBO R82150-resistant (RT K103N) | cytopathic effect / MTT | - | CEM | RT-K103N | >14.69 µM
Cc1cn([C@H]2C[C@H](N=[N+]=[N-])[C@@H](CO)O2)c(=O)[nH]c1=O | EC50 | HXB2D | p24 | - | MT-4 | - | 0.012 µM
Cc1cn([C@H]2C=C[C@@H](CO)O2)c(=O)[nH]c1=O | EC50 | NL4-3 WT | p24 | - | PBMC | - | 0.04 µM
Cc1occc1C(=S)Nc1ccc(Cl)c(/C=N/OC(C)(C)C)c1 | EC50 | Costatolide-resistant (RT Y188H) | cytopathic effect / XTT | - | CEM + CEM-SS | RT-Y188H | 1.6 µM
COc1ccc(S(=O)(=O)N(CC(C)C)C[C@@H](O)[C@H](Cc2ccccc2)NC(=O)O[C@H]2CO[C@H]3OCC(F)(F)[C@H]32)cc1 | EC50 | LAI | MTT | - | MT-2 | - | 0.0008 µM
Cc1ccnc2c1NC(=O)c1cccnc1N2C1CC1 | EC50 | P-1 (RT-K103N Y144F) | cytopathic effect | - | CEM | RT-K103N Y144F | 2.57 µg/mL
CCCc1cc(=O)oc2c3c(c4c(c12)OC(C)(C)C=C4)O[C@H](C)[C@@H](C)[C@@H]3O | EC50 | NL4-3 | XTT | - | CEM + CEM-SS | RT-K103N | 1.7 µM
Cc1cn([C@H]2C[C@H](N=[N+]=[N-])[C@@H](CO)O2)c(=O)[nH]c1=O | EC50 | H1112-2 Clinical isolate zidovudine-susceptible | syncytia | - | HT4 + HeLa | - | 0.015 µM
COC(=O)[C@H](C)NP(=O)(OC[C@@H]1C=C[C@H](n2cc(C)c(=O)[nH]c2=O)O1)Oc1ccc(Br)cc1 | EC50 | P798-1 NRTI resistant | p24 | - | PBMC | RT-M41L T215Y | 0.0075 µM
Cc1ccnc2c1NC(=O)c1cccnc1N2C1CC1 | EC50 | IIIB | cytopathic effect / XTT | - | CEM + CEM-SS | RT-V90I T139I P225S | 0.01 µM
COC(=O)[C@H](C)NP(=O)(OC[C@@H]1C=C[C@H](n2cc(C)c(=O)[nH]c2=O)O1)Oc1ccc(Br)cc1 | EC50 | G780-1 Clinical isolate ZDV-resistant | p24 | - | PBMC | RT-M41L D67N K70R T215F K219Q | 0.035 µM
CC(C)=CCOc1cc(NC(=S)c2ccoc2C)ccc1Cl | EC50 | J-2 (RT-Y181C) | cytopathic effect | - | CEM | RT-Y181C | 0.0014 µg/mL
CCCc1cc(=O)oc2c3c(c4c(c12)OC(C)(C)C=C4)O[C@@H](C)[C@H](C)[C@@H]3O | EC50 | NL4-3(RT-4XAZT+Y181C) | XTT | - | CEM + CEM-SS | RT-D67N K70R Y181C T215Y K219Q | 0.01 µM
O=c1[nH]cnc2c1ncn2[C@H]1CC[C@@H](CO)O1 | EC50 | M184V(RT-M184V) | p24 | - | MT-2 | RT-M184V | 2.3 µM
CC(C)(C)NC(=O)[C@@H]1C[C@@H]2CCCC[C@@H]2CN1C[C@@H](O)[C@H](Cc1ccccc1)NC(=O)[C@H](CC(N)=O)NC(=O)c1ccc2ccccc2n1 | EC90 | NL4-3 | p24 | - | MT-4 | PR-D30N | 0.01 µM
CN1C(=O)N(Cc2ccccc2)S(=O)(=O)c2cscc21 | EC50 | ADP/141 | syncytia | - | MT-4 | RT-D67N K70R T215F K219Q | 4.9 µM
CCC[C@@]1(CCc2ccccc2)CC(O)=C([C@H](CC)c2cccc(NS(=O)(=O)c3ccc(C(F)(F)F)cn3)c2)C(=O)O1 | EC50 | Isolate UJ00004 | p24 | - | PBMC | - | <0.8 µM
COC(=O)N[C@H](C(=O)N[C@@H](Cc1ccccc1)[C@@H](O)CN(Cc1ccc(-c2ccccn2)cc1)NC(=O)[C@@H](NC(=O)OC)C(C)(C)C)C(C)(C)C | EC50 | NL4-3 | - | - | MT-4 | - | 0.0047 µM
Cc1cn([C@H]2C[C@H](N=[N+]=[N-])[C@@H](CO)O2)c(=O)[nH]c1=O | EC50 | G704-2 NRTI resistant | p24 | - | PBMC | RT-M41L D67N K70R L210W T215Y | 1.8 µM
O=C1N(Cc2ccc(CO)cc2)[C@H](Cc2ccccc2)[C@H](O)[C@@H](O)[C@@H](Cc2ccccc2)N1Cc1ccc(CO)cc1 | EC95 | NL4-3 | p24 | - | MT-4 | PR-L10R L63P V82T I84V | 3 µM
O=S1(c2ccc(Cl)cc2)=NC(=S)Nc2ccc(Cl)cc21 | EC50 | IIIB | cytopathic effect / XTT | - | CEM + CEM-SS | - | 0.71 µM
Cc1cn([C@H]2C[C@H](N=[N+]=[N-])[C@@H](CO)O2)c(=O)[nH]c1=O | EC50 | NL4-3 | cytopathic effect / XTT | - | CEM + CEM-SS | RT-V179D | 0.003 µM
Cc1occc1C(=S)Nc1ccc(Cl)c(/C=N/OC(C)(C)C)c1 | EC50 | IIIB | syncytia | - | CEM | RT-L100I | 0.24 ± 0.05 µM
Cc1ccnc2c1NC(=O)c1cccnc1N2C1CC1 | EC50 | RF | cytopathic effect / XTT | - | CEM + CEM-SS | - | 0.2 µM
Cc1ccnc2c1NC(=O)c1cccnc1N2C1CC1 | EC50 | NL4-3 | XTT | - | CEM + CEM-SS | RT-V106I | >2 µM
O=S1(c2ccccc2)=NC(=S)Nc2ccccc21 | EC50 | LAV | cytopathic effect / XTT | - | CEM + CEM-SS | - | 0.95 µM
C[C@@H](Cn1cnc2c(N)nc(N)nc21)OCP(=O)(O)O | EC50 | IIIB | syncytia | - | C8166 | - | 20 µM
CC(C)CN(C[C@@H](O)[C@H](Cc1ccccc1)NC(=O)O[C@H]1CCOC1)S(=O)(=O)c1ccc(N)cc1 | EC90 | HXB2 | p24 | - | PBMC | PR-M46I I47V I50V | 1.94 µM
Cc1c(Sc2ccccc2)n(COCCO)c(=O)[nH]c1=O | EC50 | IIIB | cytopathic effect / XTT | - | CEM + CEM-SS | RT-Y181C | >325 µM
Cn1c2ccccc2c2c1cc(C#N)c(=O)n2-c1ccc([N+](=O)[O-])cc1 | EC50 | NNRTI-resistant | luciferase | - | HeLa | RT-K103N Y188L | 0.0069 µM
Nc1ncnc2c1ncn2[C@@H]1O[C@H](CO)C[C@@H]1F | EC50 | L74V(RT-L74V) | p24 | - | MT-2 | RT-L74V | 14 µM
Nc1nc(NC2CC2)c2ncn([C@H]3C=C[C@@H](CO)C3)c2n1 | EC50 | RT Δ.67 T69G K103N | p24 | - | MT-2 | 1 (Δ.67+T69G+K103N) | 0.178 µM
Nc1ccn([C@@H]2CS[C@H](CO)O2)c(=O)n1 | EC50 | Recombinant | p24 | - | PBMC | RT-V75I F77L Q151M | 0.08 µM
CC(C)CN(C[C@@H](O)[C@H](Cc1ccccc1)NC(=O)[C@@H](NC(=O)CNCc1cccc(F)c1)C(C)(C)C)S(=O)(=O)c1ccc(N)cc1 | EC50 | RF | - | - | MT-2 | - | <0.0057 µM
Cc1cn([C@H]2C[C@H](N=[N+]=[N-])[C@@H](CO)O2)c(=O)[nH]c1=O | EC50 | IIIB | XTT | - | CEM + CEM-SS | - | 0.005 µM
CCN1C(=O)N(Cc2ccccc2Cl)S(=O)(=O)c2cscc21 | EC50 | ADP/141 | syncytia | - | MT-4 | RT-D67N K70R T215F K219Q | 5 µM
c1ccc(C2OCc3nc4ccccc4n32)cc1 | EC50 | TIBO R82150-resistant (RT L100I) | cytopathic effect / MTT | - | CEM | RT-L100I | 11 µM
CCc1c(Sc2ccccn2)n(COCc2ccccc2)c(=O)[nH]c1=O | EC50 | NL4-3 | cytopathic effect / XTT | - | CEM + CEM-SS | RT-L74V | 0.018 µM
Cc1ccnc2c1NC(=O)c1cccnc1N2C1CC1 | EC50 | - | - | - | MT-4 | RT-M41L T215Y L100I | <0.4 µM

The last 5 rows once more:

| structure | read-out | strain | method | conditions | cells | changes | result |
|---|---|---|---|---|---|---|---|
| Cc1cn([C@H]2C[C@H](N=[N+]=[N-])[C@@H](CO)O2)c(=O)[nH]c1=O | EC50 | IIIB | XTT | - | CEM + CEM-SS | - | 0.005 µM |
| CCN1C(=O)N(Cc2ccccc2Cl)S(=O)(=O)c2cscc21 | EC50 | ADP/141 | syncytia | - | MT-4 | RT-D67N K70R T215F K219Q | 5 µM |
| c1ccc(C2OCc3nc4ccccc4n32)cc1 | EC50 | TIBO R82150-resistant (RT L100I) | cytopathic effect / MTT | - | CEM | RT-L100I | 11 µM |
| CCc1c(Sc2ccccn2)n(COCc2ccccc2)c(=O)[nH]c1=O | EC50 | NL4-3 | cytopathic effect / XTT | - | CEM + CEM-SS | RT-L74V | 0.018 µM |
| Cc1ccnc2c1NC(=O)c1cccnc1N2C1CC1 | EC50 | - | - | - | MT-4 | RT-M41L T215Y L100I | <0.4 µM |